A mixed list of measured activities; the numbers were collected in NIAID ChemDB.

Shared fields: tests in culture; organism: Mycobacterium tuberculosis

An empty or dashed field is not shown.

compound,cell line,measure,conditions,strain,method,changes,dose,value
O=C1NNC(=O)C2C3C=CC(O3)C12,,MIC bound,,H37Rv,BACTEC,,,>12.5 µg/mL
O=C(/C(=C/c1ccccc1)Sc1nnc(-c2ccccc2)o1)c1ccccc1,,inhibition,,H37Rv,BACTEC,,6.25 µg/mL,30%
CCCCCCCCNC(=O)c1cc2c(Cl)cc(Cl)cc2[nH]1,,MIC,,H37Rv,resazurin / fluorescence,,,375 µM
Cc1ccn2nc(C)c(C(=O)NCc3ccc(-c4ccc(OC(F)(F)F)cc4)cn3)c2c1,,MIC,,FQ-R1,resazurin,gyrB mutant fluoroquinolone resistant,,0.009 µg/mL
COc1cccc(C2(CSc3nnc(-c4ccc(O)cc4)o3)OCCO2)c1,,inhibition,,H37Rv,BACTEC,,6.25 µg/mL,0%
CCn1cc(C(=O)O)c(=O)c2cc(F)c(N3CCNCC3)cc21,,MIC50,,100 isolates,,,,8 µg/mL
Cc1c(CN2CCN(C)CC2)cc(-c2ccccc2)n1-c1ccc(F)cc1,,MIC,,103471,,,,0.7 µg/mL
C[C@@H](NC(=O)OCc1ccccc1)c1cnc(-c2ccc([N+](=O)[O-])cc2)[nH]1,,MIC,21 d,My 331/88,,,,>125 µM
O=c1oc2ccccc2cc1-c1cs/c(=N/N=C/c2ccc(Cl)cc2)n1C1CCCCC1,,MIC,,H37Rv,,,,>12.5 µg/mL
CCCNC(=S)NNC(=O)c1c(C)nc2sccn12,,MIC,,H37Rv,,,,>200 µg/mL
CCCc1cc(=O)oc2c3c(c4c(c12)OC(C)(C)CC4)O[C@@H](C)[C@H](C)[C@H]3O,,MIC bound,,H37Rv,BACTEC,,,≤12.5 µg/mL
O=C(NCC(=O)N1CCN(c2ccc(N3C[C@H](Cn4ccnn4)OC3=O)cc2F)CC1)C1=CC=C([N+](=O)[O-])C1,,MIC,,H37Rv,visual reading,,,0.92 µM
CCOC(=O)/C(Cc1cnccn1)=N/O,,MIC,,H37Rv,BACTEC,,,≥12.5 µg/mL
CCN1C(=O)C(=O)N(CC)C1=[Se],,MIC,,B814,,,,1.25 µg/mL
Cc1c(CN2CCN(C)CC2)cc(-c2ccccc2)n1-c1cccc2ccccc12,,MIC,,103471,,,,>16 µg/mL
O=C(CSc1nnc(-c2ccccc2Cl)o1)c1ccccc1,,inhibition,,H37Rv,BACTEC,,6.25 µg/mL,17%
CO/C(C)=C1/NC(=O)[C@H]([C@@H](C)O)NC(=O)c2csc(n2)-c2cc(O)c(-c3nc(C(=O)NNC(=O)c4cc(-c5ccco5)[nH]n4)cs3)nc2-c2csc(n2)[C@@H]2COC(=O)c3c4c5c(cccc5n3O)COC(=O)[C@@H](O[C@H]3C[C@](C)(O)[C@H](N(C)C)[C@H](C)O3)[C@@H](OC4)[C@H](NC(=O)c3csc1n3)c1nc(cs1)C(=O)N2,,MIC,,Clinical Isolate 913,broth dilution,,,10–100 µM
NC(=O)c1cnccn1,,inhibition,7 d,H37Rv,,,800 µg/mL,96.6%
CC1(C)S[C@@H]2[C@H](NC(=O)[C@H](C(=O)[O-])c3ccsc3)C(=O)N2[C@H]1C(=O)[O-].[Na+].[Na+],,MIC90,,28 strains,,,,>64 µg/mL
CCCNC(=O)Nc1c([N+](=O)[O-])cc(C(F)(F)F)cc1[N+](=O)[O-],,inhibition,,H37Rv,BACTEC,,12.5 µg/mL,89%
CC1COc2c(N3CCN(C)CC3)c(F)cc3c(=O)c(C(=O)O)cn1c23,,MIC,clinical isolate,Clinical isolates,,,,1 µg/mL
O=c1c(O)c(-c2ccc(O)c(O)c2)oc2cc(O)ccc12,,MIC bound,,H37Rv,BACTEC,,,>12.5 µg/mL
CC[C@@H](C)[C@H](NC(=O)OCc1ccccc1)c1cnc(-c2ccccc2)[nH]1,,MIC,21 d,My 331/88,,,,125 µM
CO[C@H]1/C=C/O[C@@]2(C)Oc3c(C)c(O)c4c(O)c(c(/C=N/N5CCN(C)CC5)c(O)c4c3C2=O)NC(=O)/C(C)=C\C=C\[C@H](C)[C@H](O)[C@@H](C)[C@@H](O)[C@@H](C)[C@H](OC(C)=O)[C@@H]1C,,MIC,,H37Rv 27294,,,,0.78 µg/mL
COc1cc(-c2nnc(SCC3(c4ccc(Br)cc4)OCCO3)o2)cc(OC)c1OC,,inhibition,,H37Rv,BACTEC,,6.25 µg/mL,7%
CC(=O)c1ccc(N2CCN(C(=O)c3cc(Cl)cc(Cl)c3)CC2)cc1,,MIC50,,BioA overexpression strain,turbidity,,,>50 µM
Cc1nc2sccn2c1C(=O)NNC(N)=S,,MIC,,H37Rv,,,,100 µg/mL
Cc1c(CN2CCN(C)CC2)cc(-c2ccccc2Cl)n1-c1ccccc1,,MIC,,103471,,,,>16 µg/mL
CCOc1cc(/C=N/N=c2\scc(-c3cc4cc(Br)ccc4oc3=O)n2CC)ccc1O,,EC50,,H37Rv,,,,<12.5 µg/mL
Cc1ccc(C)c(NC(=O)c2cccc3nc4ccccc4nc23)c1,,MIC,,H37Rv 27294,,,,0.78 µg/mL
O=c1[nH]c(=S)c(CO)cn1C1OC(CO)C(O)C1O,,MIC70,,H37Ra,resazurin,,,5 µg/mL
CCC(=O)N1CCN(c2ccc(C(C)=O)cc2)CC1,,MIC50,,BioA underexpression strain,turbidity,,,>50 µM
CCOC(=O)N(C)c1nn(-c2ccccn2)c(=O)n1C,,inhibition,,H37Rv,resazurin,,6.25 µg/mL,27%
CCc1cn(C2OC(COC(C)=O)C(OC(C)=O)C2F)c(=O)[nH]c1=O,,MIC55,,H37Ra,resazurin,,,50 µg/mL
C[C@@H]1CN(c2c(F)c(N)c3c(=O)c(C(=O)O)cn(C4CC4)c3c2F)C[C@H](C)N1,,MIC90,,100 isolates,,,,0.5 µg/mL
Cn1nnnc1-c1ccc(N2CCN(C(=O)c3cccc(Cl)c3)CC2)cc1,,MIC50,,Wild type without biotin,turbidity,,,>50 µM
NC(=O)C1=C[C@H]2[C@H]3C=C[C@@]2(O)C(=O)O[C@@H]3O1,,MIC,,TAC-R,,,,3.1 µg/mL
O=C(N[C@@H](Cc1ccccc1)c1cnc(-c2ccc([N+](=O)[O-])cc2)[nH]1)OCc1ccccc1,,MIC,21 d,My 331/88,,,,16 µM
CC(=O)NCC(=O)N1CCN(c2ccc(N3C[C@H](Cn4ccnn4)OC3=O)cc2F)CC1,,MIC,,H37Rv,visual reading,,,>54 µM
CCCCCC1C(C(=O)O)NC(=O)C1c1ccccc1,,MIC bound,,H37Rv,BACTEC,,,>12.5 µg/mL
CCCCC(O)CN1CCC(COc2ccc(C(=O)c3ccc(Cl)cc3)c(Cl)c2)CC1,,MIC,,,resazurin,,,6.25 µg/mL
Cc1c(CN2CCSCC2)cc(-c2ccccc2)n1-c1ccccc1,,MIC,,103471,,,,1 µg/mL
O=C1CCc2cc(N3CCN(C(=O)c4ccc5c(c4)OCO5)CC3)ccc21,,MIC90,,BioA underexpression strain,turbidity,,,0.8 µM
Cc1ccccc1NC(=O)c1cccc2nc3ccccc3nc12,,MIC,,H37Rv 27294,,,,0.39 µg/mL
Cc1c(CN2CCSCC2)cc(-c2cccc3ccccc23)n1-c1ccccc1,,MIC,,103471,,,,>16 µg/mL
CC(=O)N(C)c1ccc(Nc2ccnc3ccc4nn(C)nc4c23)cc1,,inhibition,,H37Rv,resazurin,,6.25 µg/mL,14%
CCc1nc2ccc(Cl)cn2c1C(=O)NCc1ccc(N2CCC(c3ccc(OC(F)(F)F)cc3)CC2)cc1,,MIC50,,N0052,turbidity,,,0.0025 µM
Cn1ccn(C)c1=[Se],,MIC,,B814,,,,>100 µg/mL
CO[C@H]1/C=C/O[C@@]2(C)Oc3c(C)c(O)c4c(O)c(c(/C=N/N5CCN(C)CC5)c(O)c4c3C2=O)NC(=O)/C(C)=C\C=C\[C@H](C)[C@H](O)[C@@H](C)[C@@H](O)[C@@H](C)[C@H](OC(C)=O)[C@@H]1C,,MIC,,RIF-R1,resazurin,rpoB mutant rifampicin-resistant,,0.42 µg/mL
O=C1C2C3CCC(O3)C2C(=O)N1SC(Cl)(Cl)Cl,VERO,MIC,,H37Rv,BACTEC,,,12.5 µg/mL
C[C@H](NC(=O)OCc1ccccc1)c1cnc(-c2ccc([N+](=O)[O-])cc2)[nH]1,,MIC,14 d,My 331/88,,,,>125 µM
CCc1cn(C2OC(CO)C(Br)C2F)c(=O)[nH]c1=O,,MIC78,,H37Ra,resazurin,,,100 µg/mL
NNC(=O)C(=O)C1CC(c2ccc(Cl)cc2)=NNC1=O,,MIC bound,,H37Rv,resazurin,,,>6.25 µg/mL
S=c1[nH]nc(-c2ccc(Cl)cc2Cl)o1,,inhibition,,H37Rv,BACTEC,,6.25 µg/mL,20%
CCOc1ccccc1Nc1nc(C)c(C(=O)CC(=O)C(=O)Nc2ccccc2)s1,,MIC bound,,H37Rv,resazurin,,,>6.25 µg/mL
CCCCNC(=S)NNC(=O)c1c(C)nc2sccn12,,MIC,,H37Rv,,,,>200 µg/mL
CC1(C)NC(=S)NC1=S,,MIC,,B814,,,,>100 µg/mL
CCCN1C(=O)CS/C1=N/NC(=O)c1c(C)nc2sccn12,,MIC,,H37Rv,,,,>200 µg/mL
Nc1ccc(C(=NNc2ccc([N+](=O)[O-])cn2)c2ccc(N)cc2)cc1,,inhibition,,H37Rv,BACTEC,,12.5 µg/mL,19%
Oc1ccccc1-c1nnc(SCC2(c3ccc(F)cc3)OCCO2)o1,,inhibition,,H37Rv,BACTEC,,6.25 µg/mL,33%
CC(=O)c1ccc(N2CCN(C(=O)c3ccc(Cl)c(Cl)c3)CC2)cc1,,MIC90,,Wild type without biotin,turbidity,,,>50 µM
O=C(N=Nc1c(Cl)c(O)c2ccccc2c1O)C(=O)Nc1ccc(Cl)c([N+](=O)[O-])c1,,inhibition,,H37Rv,BACTEC,,12.5 µg/mL,66%
Cc1ccc(NC(=O)c2cccc3nc4ccccc4nc23)cc1C,,MIC,,H37Rv 27294,,,,0.39 µg/mL
CCn1c(-c2cc3cc(Br)ccc3oc2=O)cs/c1=N\N=C\c1cc(Br)ccc1O,,EC50,,H37Rv,,,,<12.5 µg/mL
CN1C(=O)C(=O)N(C)C1=S,,MIC,,B814,,,,20 µg/mL
O=c1c2cc(O)ccc2n2nnc3ccc(NCCNCCO)c1c32,,MIC bound,,H37Rv,BACTEC,,,>12.5 µg/mL
C[C@@H]1[C@@H](NC(=O)c2cc3c(F)cc(F)cc3[nH]2)C[C@H]2C[C@@H]1C2(C)C,,MIC,,V4207,resazurin / fluorescence,,,0.0078 µM
CC1=CC(=C(c2cc(C)c(O)c(C(=O)O)c2)c2cc(C)c(O)c(C(=O)O)c2)C=C(C(=O)O)C1=O,,MIC bound,,H37Rv,BACTEC,,,>6.25 µg/mL
CO/C(C)=C1/NC(=O)[C@H]([C@@H](C)O)NC(=O)c2csc(n2)-c2cc(O)c(-c3nc(C(=O)NCCCN4CCOCC4)cs3)nc2-c2csc(n2)[C@@H]2COC(=O)c3c4c5c(cccc5n3O)COC(=O)[C@@H](O[C@H]3C[C@](C)(O)[C@H](N(C)C)[C@H](C)O3)[C@@H](OC4)[C@H](NC(=O)c3csc1n3)c1nc(cs1)C(=O)N2,,MIC,,Clinical isolate 30425,broth dilution,,,≤2.5 µM
Cn1cnc([N+](=O)[O-])c1Sc1cn(C2CC(O)C(CO)O2)c(=O)[nH]c1=O,,inhibition,,H37Rv,BACTEC,,12.5 µg/mL,-1%
C[C@@H]1C(NC(=O)c2cc3c(Cl)cc(Cl)cc3[nH]2)C[C@H]2C[C@@H]1C2(C)C,,MIC,multidrug-resistant,V2475,resazurin / fluorescence,,,0.0625 µM
O=c1oc2ccccc2cc1-c1cs/c(=N\N=C\c2ccccc2[N+](=O)[O-])n1C1CCCCC1,,EC50,,H37Rv,,,,>12.5 µg/mL
Cc1nc2sccn2c1C(=O)N/N=C1/SCC(=O)N1C,,MIC,,H37Rv,,,,>200 µg/mL
Cc1cc2nc3c(C(O)C(O)C(O)CO)nn(-c4ccccc4)c3nc2cc1C,,inhibition,,H37Rv,BACTEC,,12.5 µg/mL,20%
Cc1c(CN2CCSCC2)cc(-c2ccccc2)n1-c1ccc(F)cc1,,MIC,,103471,,,,0.4 µg/mL
Cc1cc(S(=O)(=O)Nc2nc3[nH]ncc3c(=O)n2N)c(S)cc1Cl,,MIC bound,,H37Rv,resazurin,,,>6.25 µg/mL
CCNC(=S)NNC(=O)c1c(C)nc2sccn12,,MIC,,H37Rv,,,,>200 µg/mL
COc1cc(-c2n[nH]c(=S)o2)cc(OC)c1OC,,inhibition,,H37Rv,BACTEC,,6.25 µg/mL,3%
O=S(=O)([O-])C1CC2C(c3ccccc31)N1ON2O1.[Na+],,inhibition,,H37Rv,BACTEC,,12.5 µg/mL,13%
COc1ccc(NC(=O)c2cccc3nc4ccccc4nc23)cc1,,MIC,,H37Rv 27294,,,,0.78 µg/mL

Repeating the first 6 entries:

O=C1NNC(=O)C2C3C=CC(O3)C12 ; measure: MIC bound ; strain: H37Rv ; method: BACTEC ; value: >12.5 µg/mL
O=C(/C(=C/c1ccccc1)Sc1nnc(-c2ccccc2)o1)c1ccccc1 ; measure: inhibition ; strain: H37Rv ; method: BACTEC ; dose: 6.25 µg/mL ; value: 30%
CCCCCCCCNC(=O)c1cc2c(Cl)cc(Cl)cc2[nH]1 ; measure: MIC ; strain: H37Rv ; method: resazurin / fluorescence ; value: 375 µM
Cc1ccn2nc(C)c(C(=O)NCc3ccc(-c4ccc(OC(F)(F)F)cc4)cn3)c2c1 ; measure: MIC ; strain: FQ-R1 ; method: resazurin ; changes: gyrB mutant fluoroquinolone resistant ; value: 0.009 µg/mL
COc1cccc(C2(CSc3nnc(-c4ccc(O)cc4)o3)OCCO2)c1 ; measure: inhibition ; strain: H37Rv ; method: BACTEC ; dose: 6.25 µg/mL ; value: 0%
CCn1cc(C(=O)O)c(=O)c2cc(F)c(N3CCNCC3)cc21 ; measure: MIC50 ; strain: 100 isolates ; value: 8 µg/mL

ECn is the concentration giving n% inhibition of infection, replication or growth. MIC50, MIC90 and the like: level of inhibition, or share of isolates inhibited. a–b is a range or a potency band. MIC bound: limit read from a one-dose screen. Percent inhibition refers to the dose given; in toxicity tests it is the harm to the cells. Conditions beyond the fields shown may differ between rows.